As usually defined, the pEC50 is the negative decadic logarithm of the EC50, by convention in mol/L.

Sequences of proteins named here, by UniProt entry; tags and fusion partners are left off. Residues count along the entry.
UniProt P26313, 252-485 limits assumed: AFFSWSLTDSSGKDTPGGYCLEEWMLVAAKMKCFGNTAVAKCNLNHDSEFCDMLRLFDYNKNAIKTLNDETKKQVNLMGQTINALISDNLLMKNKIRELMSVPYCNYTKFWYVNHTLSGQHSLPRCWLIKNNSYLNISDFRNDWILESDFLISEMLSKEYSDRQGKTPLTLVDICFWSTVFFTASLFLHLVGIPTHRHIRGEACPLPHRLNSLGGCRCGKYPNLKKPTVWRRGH
UniProt P26313, 59-251 partner limits assumed: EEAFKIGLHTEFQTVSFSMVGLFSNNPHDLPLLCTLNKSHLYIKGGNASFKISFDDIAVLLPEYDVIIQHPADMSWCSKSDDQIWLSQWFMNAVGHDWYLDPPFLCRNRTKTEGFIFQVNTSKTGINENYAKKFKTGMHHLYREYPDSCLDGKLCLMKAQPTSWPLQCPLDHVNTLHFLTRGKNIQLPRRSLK
UniProt P26313, 2-58 limits assumed: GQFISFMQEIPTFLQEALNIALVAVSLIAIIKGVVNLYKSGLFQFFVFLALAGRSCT

The values below come from patent publication US9115065B2 (priority 2004, dated 2015).

The target of one data set is JUNV GPC (Junin mammarenavirus, UniProt P26313). It is filed as cell-based, Junin virus. The conditions noted are these: pH 5; read-out: EC50 of inhibition of JUNV GPC-mediated cell-cell fusion.
The conditions of data set [1]: in vivo.

pEC50: −log10 of the molar value.

In the case of “N-2-(1,1,1,3,3,3-hexafluoro-1-methylpropyl)-2-[(4-difluoromethoxyphenyl)sulfonyl]hydrazine-1-carboxamide [ST-294]”, at JUNV GPC, the pEC50 is 5.82. In data set [1], the “PK (rat/oral) bioavailability (F)” value is listed as 68.2%.
